In article PMC2788227, “Kinetic Characterization and Phosphoregulation of the Francisella tularensis 1-Deoxy-D-Xylulose 5-Phosphate Reductoisomerase (MEP Synthase)” (PLoS ONE, 2009):

Tests used:
[1] = test system: Francisella tularensis MEP synthase S177D mutant, C-terminal His-tagged, Francisella tularensis subsp. holarctica LVS, Q2A4P9 1-385; assay: SEC
[2] = test system: Francisella tularensis MEP synthase S177E mutant, C-terminal His-tagged, Francisella tularensis subsp. holarctica LVS, Q2A4P9 1-385; assay: SEC

Substance: Francisella tularensis MEP synthase S177D mutant, C-terminal His-tagged
- stoichiometry N [1]: 2

Substance: Francisella tularensis MEP synthase S177E mutant, C-terminal His-tagged
- stoichiometry N [2]: 2
